Laboratory results published in article PMC5971065 (ACS infectious diseases, 2017).

System: A549, HEK-293, and J774A.1 cells

For kanamycin A, the cytotoxicity was “not toxic”.
